Results on seven compounds are retold here after patent USRE37781E1, “Substituted cyclic carbonyls and derivatives thereof useful as retroviral protease inhibitors” (DuPont Pharmaceuticals Company, priority 1991, dated 2002).

Test [1] concerns the target single-chain tethered dimer of HIV protease (Human immunodeficiency virus 1, UniProt P04585). The note with it: HIV protease inhibition.
Test [2] relates to HIV-1 infected human CEM lymphcyte cells xenotransplanted in nude mice. The test is described as follows: HIV-1/CEM Mouse Xenotransplant Animal Model. Format: in vivo, nude (nu/nu) mice.
The next test relates to HIV-1 protease. The test is described as follows: HIV-1 Protease Transgenic Mouse Model (cataract phenotype). The note with it: Tg 72 mouse.
In another test the target is HIV protease (Human immunodeficiency virus type 1 group M subtype B, UniProt P04585).
The mark [3] stands for this setting: read-out: HPLC K1, HPLC method, Table 2d.

Read-outs that look alike come from different tables or passages of the source. The structures given here were assigned with low confidence; some may be wrong.

Turning to `O=C1N(CC2=CCSC2)[C@H](Cc2ccccc2)[C@H](O)[C@@H](O)[C@@H](Cc2ccccc2)N1CC1=CCSC1`, the Ki in test [1] (setting [3]) fell in the range of 10 to 1000 nM.
Turning to `O=C1N(Cc2cccc(O)c2)[C@H](Cc2ccccc2)[C@H](O)[C@@H](O)[C@@H](Cc2ccccc2)N1Cc1cccc(O)c1`, the IFA is 116.7% of the control untreated levels in test [2] (30 mg/kg bid ip), 111.3% of the control untreated levels in test [2] (100 mg/kg bid ip) and 51.5% of the control untreated levels in test [2] (300 mg/kg bid ip). Besides, the “p24 E1A” value in test [2] (30 mg/kg bid ip) is on record as 61.5% of the control untreated levels; in test [2] (100 mg/kg bid ip) it was 76.4% of the control untreated levels; in test [2] (300 mg/kg bid ip), 37.8% of the control untreated levels. Moreover, in test [1] (class symbols), the Ki was < 10 nM. For the same compound, the IC90 result with HIV-1 (RF) in MT-2 cells (HIV RNA assay, HIV-1 infected MT-2 cells, class symbols) is on record as “+++ (+++=<10 μg/mL)”. For the same compound, the “Delay in Cataract (relative to control)” value is 3.6 days with HIV-1 protease (50 mg/kg bid ip days 15-20/po days 21 & ff) and 6 days in the test with HIV-1 protease (80 mg/kg bid ip days 15-19/po days 20 & ff).
Take `O=C1N(Cc2ccsc2)[C@H](Cc2ccccc2)[C@H](O)[C@@H](O)[C@@H](Cc2ccccc2)N1Cc1ccsc1`: the Ki in test [1] (setting [3]) is < 10 nM.
Regarding `COCCOCCN1C(=O)N(CCOCCOC)[C@H](Cc2ccccc2)[C@H](O)[C@@H](O)[C@H]1Cc1ccccc1`, the Ki at HIV protease (Table 1a) was > 1000 nM.
As to `O=C1N(Cc2cccc(CO)c2)C(CCc2ccccc2)C(O)C(Cc2ccccc2)N1Cc1cccc(CO)c1` (centres unmarked), the Ki at HIV protease (Table 1e) was 10 to 1000 nM. For the same compound, in the test on HIV-1 (RF) in MT-2 cells (Table 1e), the IC90 entry was “+ (+=>100 μg/mL)”.
On to `N#Cc1cc(CN2C(=O)N(CC3CC3)[C@H](Cc3ccccc3)[C@H](O)[C@@H](O)[C@H]2Cc2ccccc2)ccc1F`, for which the Ki in test [1] (read-out: HPLC K1, Table 2d, HPLC method) fell in the range of 10 to 1000 nM.
In the case of `O=C1N(Cc2ccco2)[C@H](Cc2ccccc2)[C@H](O)[C@@H](O)[C@@H](Cc2ccccc2)N1Cc1ccco1`, the Ki in test [1] (setting [3]) was < 10 nM.
